Pooled drug test results. Numbers come from NIAID ChemDB, via PubChem.

Shared fields: host cell toxicity; endpoint: CC50

Rows are shuffled and stem from different studies. CCn: concentration that lowers growth or viability of the cells by n%.

compound	cells	value
Cc1cc(C)nc(NS(=O)(=O)c2ccc(N=C3C(=O)N(C(=O)c4ccccc4)c4ccccc43)cc2)n1	HFF	>300 µM
Nc1nc(=O)n([C@@H]2C=C(CO)[C@@H](O)[C@H]2O)cc1F	MK2	>100 µg/mL
O=c1[nH]c(=O)n([C@H]2C[C@H](O)[C@@H](CO)O2)cc1I	C1271	2.5 µM
CS/C(N)=N\N=C(/C)c1ccc(Cl)cc1	Chorioallantoic membrane	354.2 µg/mL
Nc1ncnc2c1ncn2[C@@H]1O[C@H](CO)[C@@H](O)[C@@H]1O	C1271	55 µM
CS/C(N)=N\N=C\c1ccc(Cl)c(Cl)c1	Chorioallantoic membrane	707 µg/mL
Cc1cc(C)nc(NS(=O)(=O)c2ccc(N=C3C(=O)Nc4ccc(Br)cc43)cc2)n1	HFF	>300 µM
Nc1nc2c(ncn2CCOCP(=O)(O)O)c(=O)[nH]1	HFF	>244 µM
Nc1nccc2c1ncn2[C@@H]1CC[C@@H](O)[C@H]1O	L929	27.4 µM
CO[C@H]1[C@@H](O)[C@H](n2cnc3c(N)ncnc32)O[C@@H]1CO	VERO	400 µM
CCCCCCCCCCOc1ccc(/C(C)=N/N=C(/N)SC)cc1	Chorioallantoic membrane	1000 µg/mL
CC(=O)N1C(=O)C(=Nc2ccc(S(=O)(=O)Nc3nc(C)cc(C)n3)cc2)c2cc(Cl)ccc21	HFF	>300 µM
Nc1ccn(C[C@@H](CO)OCP(=O)(O)O)c(=O)n1	C1271	180 µM
CC(N)C12CC3CC(CC(C3)C1)C2	CEF	>32 µM